This is an account of results in article PMC4667793 (Journal of medicinal chemistry, 2015).

The chains behind the UniProt entries cited, without tags or fusion partners. Where a name states a change or a piece, a line headed by the entry shows the natural chain unless it says otherwise.
UniProt I6YFP0: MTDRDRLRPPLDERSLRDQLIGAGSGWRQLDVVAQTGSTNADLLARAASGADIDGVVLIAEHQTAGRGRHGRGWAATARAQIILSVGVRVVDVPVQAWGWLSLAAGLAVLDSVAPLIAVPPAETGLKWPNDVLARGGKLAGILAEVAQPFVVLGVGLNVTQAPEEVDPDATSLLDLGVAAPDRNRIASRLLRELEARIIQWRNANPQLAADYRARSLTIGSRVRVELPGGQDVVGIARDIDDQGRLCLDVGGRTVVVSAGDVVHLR

The target of experiment [1] is T1, MtBPL (Mycobacterium tuberculosis, UniProt I6YFP0). The settings on record: from K of displacement ITC, 298 K.
Experiment [2] deals with T1, MtBPL.

At MtBPL [1], `CCN(CC)CC.Nc1ncnc2c1ncn2COCCNS(=O)(=O)NC(=O)CCCC[C@@H]1SC[C@@H]2NC(=O)N[C@@H]21` [Compound 90] came in with a ΔG of -13.0 ± 0.1 kcal/mol. In addition, on MtBPL [2] (calculated from ΔG (displacement) and ΔH (direct titration)), the “-TΔS” value is reported as 12.6 ± 0.7 kcal/mol. Besides, the ΔH on MtBPL [2] (direct titration ITC, 25 °C) is -25.5 ± 0.7 kcal/mol.
